# Sequence variants of PSTVd loop 15 after infection

The measurements come from Wu et al. 2024 (doi:10.1371/journal.ppat.1012142).

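Three N. benthamiana plants were inoculated with the whole mutant pool. Progeny were sequenced from the inoculated region (day 5), the margin of the inoculated leaf (day 10) and systemic leaves (day 12).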

The pool varies loop 15 of the PSTVd intermediate strain in the pattern GGAAACCGNNNNNNC; wild type is GGAAACCGCUACUAC (upper and lower strand joined, each 5' to 3', the first 7 letters being the upper strand, closing pairs included).

Values are reads per thousand in the sample; higher means more abundant, 0 means not found. Each value is the mean of three plants. "Pool" is the share in the plasmid pool used as inoculum, on the same scale. The inoculated region was read from the minus strand, the other sites from the plus strand. IR is the inoculated region, LM the leaf margin, Sys the systemic leaves.

| sequence | pool | IR | LM | Sys |
|---|---|---|---|---|
| GGAAACCGAACCUUC | 0.288 | 0.0861 | 0 | 0 |
| GGAAACCGAAUAUAC | 0.272 | 0.314 | 0.148 | 0.0161 |
| GGAAACCGACCUAAC | 0.240 | 0.108 | 0.00539 | 0.00537 |
| GGAAACCGACGAUCC | 0.320 | 0.0920 | 0.00668 | 0 |
| GGAAACCGACGCGGC | 0.256 | 0.0480 | 0.00742 | 0 |
| GGAAACCGAGAGGAC | 0.176 | 0.254 | 0.105 | 0.0430 |
| GGAAACCGAUCAAAC | 0.144 | 0.140 | 0.00742 | 0 |
| GGAAACCGAUCCCCC | 0.208 | 0.131 | 0.0282 | 0 |
| GGAAACCGAUCUAAC | 0.176 | 0.262 | 0.00668 | 0 |
| GGAAACCGAUGUCGC | 0.256 | 0.0943 | 0.0128 | 0 |
| GGAAACCGAUUGGGC | 0.192 | 0.170 | 0.00539 | 0.00504 |
| GGAAACCGCACAGCC | 0.208 | 0.0496 | 0.0121 | 0.00537 |
| GGAAACCGCACCUUC | 0.144 | 0.121 | 0 | 0.00537 |
| GGAAACCGCAGUCUC | 0.192 | 0.0739 | 0.0128 | 0.00537 |
| GGAAACCGCAUCCUC | 0.240 | 0.211 | 0.0141 | 0.00537 |
| GGAAACCGCAUUUCC | 0.416 | 0.102 | 0.00668 | 0.00537 |
| GGAAACCGCCUAACC | 0.272 | 0.0705 | 0.00539 | 0.00537 |
| GGAAACCGCGGAUUC | 0.272 | 0.374 | 0.120 | 0.0107 |
| GGAAACCGCGGCGUC | 0.272 | 0.107 | 0.00668 | 0 |
| GGAAACCGCGGUUCC | 0.160 | 0.101 | 0 | 0 |
| GGAAACCGCGUGCGC | 0.288 | 0.0743 | 0.0316 | 0.00537 |
| GGAAACCGCUAAUAC | 0.336 | 27.4 | 16.0 | 6.95 |
| GGAAACCGCUAUUAC | 16.3 | 42.1 | 37.6 | 37.7 |
| GGAAACCGCUCUGAC | 0.176 | 0.172 | 0.0249 | 0.0107 |
| GGAAACCGCUUGCAC | 0.192 | 0.0658 | 0.0321 | 0 |
| GGAAACCGGAGGCUC | 0.304 | 0.107 | 0.00668 | 0 |
| GGAAACCGGAUGCAC | 0.336 | 0.114 | 0.00742 | 0 |
| GGAAACCGGCCGAAC | 0.176 | 0.294 | 0.112 | 0 |
| GGAAACCGGCCUGGC | 0.208 | 0.0686 | 0.0195 | 0.00537 |
| GGAAACCGGCGCCUC | 0.272 | 0.109 | 0.00742 | 0 |
| GGAAACCGGCGCGCC | 0.256 | 0.0867 | 0.0121 | 0.00760 |
| GGAAACCGGCUCUAC | 0.256 | 0.0857 | 0.0182 | 0.00537 |
| GGAAACCGGCUCUCC | 0.224 | 0.115 | 0.00539 | 0 |
| GGAAACCGGCUGUUC | 0.160 | 0.113 | 0.00742 | 0 |
| GGAAACCGGGAGUAC | 0.320 | 0.425 | 0.110 | 0.0357 |
| GGAAACCGGGGUUAC | 0.224 | 0.0901 | 0.0134 | 0 |
| GGAAACCGGGUCAGC | 0.288 | 0.0741 | 0 | 0 |
| GGAAACCGGUCAUAC | 0.256 | 0.328 | 0.783 | 0.0891 |
| GGAAACCGGUCUAGC | 0.224 | 0.0730 | 0.0121 | 0 |
| GGAAACCGGUGUGGC | 0.208 | 0.104 | 0.0128 | 0 |
| GGAAACCGUACUCCC | 0.240 | 0.113 | 0.0134 | 0 |
| GGAAACCGUAGAAGC | 0.208 | 0.0279 | 0.00539 | 0 |
| GGAAACCGUAGGCUC | 0.304 | 0.106 | 0.00668 | 0 |
| GGAAACCGUAGGGCC | 0.256 | 0.0695 | 0.0121 | 0 |
| GGAAACCGUAUUAAC | 0.224 | 0.114 | 0.0241 | 0.00504 |
| GGAAACCGUCACACC | 0.240 | 0.127 | 0.00539 | 0 |
| GGAAACCGUCCCAUC | 0.272 | 0.0915 | 0.0187 | 0 |
| GGAAACCGUCCGAAC | 0.112 | 0.357 | 0.114 | 0.0161 |
| GGAAACCGUCUAUUC | 0.352 | 0.277 | 0.0705 | 0.00537 |
| GGAAACCGUGGGAUC | 0.240 | 0.0773 | 0 | 0 |
| GGAAACCGUUCACGC | 0.192 | 0.118 | 0 | 0.00537 |
| GGAAACCGUUGACUC | 0.224 | 0.0877 | 0 | 0 |
| GGAAACCGUUGUCAC | 0.256 | 0.364 | 0.112 | 0.00537 |

Extract of 5 entries:

- GGAAACCGCGGAUUC (pool 0.272) -> IR 0.374; LM 0.120; Sys 0.0107
- GGAAACCGAAUAUAC (pool 0.272) -> IR 0.314; LM 0.148; Sys 0.0161
- GGAAACCGUACUCCC (pool 0.240) -> IR 0.113; LM 0.0134; Sys 0
- GGAAACCGGCUCUAC (pool 0.256) -> IR 0.0857; LM 0.0182; Sys 0.00537
- GGAAACCGCGGUUCC (pool 0.160) -> IR 0.101; LM 0; Sys 0

Samples held 43,870 to 66,106 reads, so the smallest values rest on one or two reads. For reference, wild type rose from 33.9 per thousand in the pool to 202, 200, 159 (inoculated region), 724, 746, 710 (leaf margin) and 856, 883, 880 (systemic leaves). The authors trace changes outside the varied positions to PCR and sequencing errors or to mutation in the plant; presence does not show that a variant is infectious alone.